Publication PMC7157764, “Avoiding Drug Resistance by Substrate Envelope-Guided Design: Toward Potent and Robust HCV NS3/4A Protease Inhibitors” (mBio, 2020)

Sequences of proteins named here, by UniProt entry; tags and fusion partners are left off. Residues count along the entry.
UniProt P27958, 1027-1208 C1185S/D1194A limits assumed: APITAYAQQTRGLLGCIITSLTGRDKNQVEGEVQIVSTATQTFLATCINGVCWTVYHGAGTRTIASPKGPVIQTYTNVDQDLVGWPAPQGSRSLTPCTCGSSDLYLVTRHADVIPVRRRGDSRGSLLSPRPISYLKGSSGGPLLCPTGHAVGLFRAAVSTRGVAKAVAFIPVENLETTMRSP

How the values were obtained:
[1] = system: HCV NS3/4A protease D168A variant; assay: Enzyme inhibition assay, D168A NS3/4A protease variant; details: Ki D168A / Ki GT1a WT, in parentheses in Table S1
Description: (§1) The HCV GT1a NS3/4A protease gene described in the Bristol Myers Squibb patent was synthesized by GenScript and cloned into a PET28a expression vector ([52]). Cys159 was mutated to a serine residue to prevent disulfide bond formation and facilitate crystallization. The D168A gene was engineered using a site-directed mutagenesis protocol from Stratagene. Protein expression and purification were carried out as previously described ([28]). Briefly, transformed Escherichia coli BL21(DE3) cells were grown in Tris-borate (TB) medium containing 30 μg/ml of kanamycin antibiotic at 37°C. After cultures reached an optical density at 600 nm (OD600) of 0.7, they were induced with 1 mM isopropyl-β-D-thiogalactopyranoside (IPTG) and harvested after 3 h of expression. Cells were pelleted by centrifugation, resuspended in resuspension buffer (RB) (50 mM phosphate buffer, 500 mM NaCl, 10% glycerol, 2 mM β-mercaptoethanol [β-ME], pH 7.5), and frozen at −80°C for storage.
(§2) The inner-filter effect (IFE) for the NS3/4A protease substrate was determined using a previously described method ([53]). […] . The fluorescence of free 5-FAM was determined by subtracting the first fluorescence endpoint reading from the reading at the second round. IFE corrections were then calculated by dividing the free 5-FAM florescence at each substrate concentration by the free 5-FAM florescence at zero substrate.
(§3) Km constants for GT1 and D168A protease were previously determined ([29]). Briefly, a 20 μM concentration of substrate [Ac-DE-Dap(QXL520)-EE-Abu-γ-[COO]AS-C(5-FAMsp)-NH2] (AnaSpec) was serially diluted into assay buffer (50 mM Tris, 5% glycerol, 10 mM dithiothreitol [DTT], 0.6 mM LDAO [N,N-dimethyldodecylamine N-oxide], and 4% dimethyl sulfoxide), and proteolysis was initiated by rapid injection of 10 μl of protease (final concentration, 20 nM) in a reaction volume of 60 μl. The fluorescence output from the substrate cleavage product was measured kinetically using an EnVision plate reader (Perkin-Elmer) with excitation wavelength at 485 nm and emission at 530 nm. Inner-filter effect corrections were applied to the initial velocities (Vo) at each substrate concentration. Graphs of Vo versus substrate concentration were globally fit to the Michaelis-Menten equation to obtain the Km value.
(§4) For each assay, 2 nM NS3/4A protease (GT1a and D168A) was preincubated at room temperature for 1 h with an increasing concentration of inhibitors in assay buffer (50 mM Tris, 5% glycerol, 10 mM DTT, 0.6 mM LDAO, and 4% dimethyl sulfoxide, pH 7.5). Inhibition assays were performed in nonbinding-surface 96-well black half-area plates (Corning) in a reaction volume of 60 μl. The proteolytic reaction was initiated by the injection of 5 μl of HCV NS3/4A protease substrate (AnaSpec), to a final concentration of 200 nM, and kinetically monitored using a Perkin Elmer EnVision plate reader (excitation at 485 nm; emission at 530 nm). Three independent data sets were collected for each inhibitor with each protease construct.

[2] = molecular target: HCV NS3/4A protease D168A variant (Hepatitis C virus genotype 1a, UniProt P27958, C1185S/D1194A); assay: as above; details: for Ki: read-out: Ki D168A, 2 nM protease preincubated 1 h at room temperature with inhibitor, pH 7.5, 200 nM fluorogenic substrate, Morrison equation global fit, error from global fit of at least three replicates
Description: as §1, §2, §3, §4

Row | SMILES | Fold change of Ki, D168A relative to WT [1] [fold] | other results
1 | CC[C@H](C)[C@H](NC(C)=O)C(=O)N[C@H]1CCCCC/C=C\[C@@H]2C[C@@]2(C(=O)NS(=O)(=O)C2(C)CC2)NC(=O)[C@@H]2C[C@@H](Oc3nc4cc(OC)ccc4nc3C)CN2C1=O | 11 | 
2 | COc1ccc2nc(C)c(O[C@@H]3C[C@H]4C(=O)N[C@]5(C(=O)NS(=O)(=O)C6(C)CC6)C[C@H]5/C=C\CCCCC[C@H](NC(=O)[C@@H](NC(C)=O)C(C)C)C(=O)N4C3)nc2c1 | 13 | 
3 | COC(=O)N[C@H](C(=O)N[C@H]1CCCCC/C=C\[C@@H]2C[C@@]2(C(=O)NS(=O)(=O)C2(C)CC2)NC(=O)[C@@H]2C[C@@H](Oc3nc4cc(OC)ccc4nc3C)CN2C1=O)C(C)(C)C | 8 | 
4 | COc1ccc2nc(C)c(O[C@@H]3C[C@H]4C(=O)N[C@]5(C(=O)NS(=O)(=O)C6(C)CC6)C[C@H]5/C=C\CCCCC[C@H](NC(=O)[C@@H](NC(C)=O)C(C)(C)C)C(=O)N4C3)nc2c1 | 9 | 
5 | COC(=O)N[C@H](C(=O)N[C@H]1CCCCC/C=C\[C@@H]2C[C@@]2(C(=O)NS(=O)(=O)C2(C)CC2)NC(=O)[C@@H]2C[C@@H](Oc3nc4cc(OC)ccc4nc3C)CN2C1=O)C1CCCC1 | 9 | 
6 | COc1ccc2nc(C)c(O[C@@H]3C[C@H]4C(=O)N[C@]5(C(=O)NS(=O)(=O)C6(C)CC6)C[C@H]5/C=C\CCCCC[C@H](NC(=O)[C@@H](NC(C)=O)C5CCCC5)C(=O)N4C3)nc2c1 | 39 | 
7 | COc1ccc2nc(C)c(O[C@@H]3C[C@H]4C(=O)N[C@]5(C(=O)NS(=O)(=O)C6(C)CC6)C[C@H]5/C=C\CCCCC[C@H](NC(=O)OC(C)(C)C)C(=O)N4C3)nc2c1 | 14 | Ki ([2]; listed as parent compound): 50 nM
8 | COc1ccc2nc(C)c(O[C@@H]3C[C@H]4C(=O)N[C@]5(C(=O)NS(=O)(=O)C6(C)CC6)C[C@H]5/C=C\CCCCC[C@H](NC(=O)OC5(C)CCCC5)C(=O)N4C3)nc2c1 | 9 | Fold increase in potency against D168A from P4-3 to P4-4 ([2]; relative to P4-3, 1-methyl substituent added to cyclopentyl P4 cap): 2 fold
9 | COc1ccc2nc(C)c(O[C@@H]3C[C@H]4C(=O)N[C@]5(C(=O)NS(=O)(=O)C6(C)CC6)C[C@H]5/C=C\CCCCC[C@H](NC(=O)OC5CCCC5)C(=O)N4C3)nc2c1 | 32 | Ki [2]: 36 nM

Where two headings read alike, the source gives them in different places.
